Target: biotinylated-5-Helix/D5-FITC IgG
Experiment: D5 IgG binding IC50 (nM)***
Settings: read-out: D5 IgG binding IC50 (nM)***

B1: ac-C(Acm)(thioS17N17)3: one ac-C(Acm)Ttds-CCS17N17 ligated via two thioether bonds to two acetyl-GGGS17N17 chains (peptide)
peptide 1: CCCGGIEKKIEAIEKKIEAIEKLLQLTVWGIKQLQARIL
peptide 2: GGGIEKKIEAIEKKIEAIEKLLQLTVWGIKQLQARIL
modifications: cyclised or stapled
IC50: 51 nM

B2: ac-C(Acm)(thioIZN17)3: one ac-C(Acm)Ttds-CCIZN17 chain ligated via two thioether bonds to two acetyl-GGGIZN17 chains (peptide)
peptide 1: CCCGGIKKEIEAIKKEQEAIKKKIEAIEKLLQLTVWGIKQLQARIL
peptide 2: GGGIKKEIEAIKKEQEAIKKKIEAIEKLLQLTVWGIKQLQARIL
IC50: 28 nM

Reference: patent US7811577B2 (priority 2004, dated 2010)
